A mixed list of measured activities; the numbers were collected in NIAID ChemDB.

All rows: whole-cell or culture tests; organism: Hepatitis C virus; read-out: EC50

ECn: concentration that inhibits the pathogen or its effect by n%.

{"smiles": "Fc1ccc(-c2ccc3nc(NCc4ncco4)nc(NCC(F)(F)F)c3n2)cc1", "method": "replicon", "value": "<0.1 µM"}
{"smiles": "O=C(Nc1cccc(-c2cc(-c3c(Cl)cccc3Cl)on2)c1)C(Cl)Cl", "method": "replicon", "value": "≤10 µM"}
{"smiles": "Fc1ccc(CNc2nc(NCC(F)(F)F)c3nc(-c4ccc(F)cc4)ccc3n2)cc1", "method": "replicon", "value": "<0.1 µM"}
{"smiles": "CC1(C)Oc2cc3oc(-c4cc(O)cc(OC[C@H]5O[C@@H](O)[C@H](O)[C@@H](O)[C@@H]5O)c4)cc3cc2CC1O", "method": "replicon", "value": ">100 µM"}
{"smiles": "O=c1c(-c2noc(Cc3ccccc3)n2)cn(Cc2ccc(C(F)(F)F)cc2)c2cc(N(CCO)CCO)c(F)cc12", "strain": "1b", "method": "replicon", "value": "<2 µM"}
{"smiles": "Cc1cc(C)n2nc(CC3=C(O)CC(CCc4ccc(C(C)(C)C#N)c(Cl)c4)(C4CCCC4)OC3=O)nc2n1", "strain": "FC", "method": "replicon", "value": "146 µM"}
{"smiles": "COC(=O)c1ccc(N2CCN(S(=O)(=O)c3ccc(OC(F)(F)F)cc3)C(C(=O)NCc3ccc(OC(F)(F)F)cc3)C2)nn1", "strain": "1a", "method": "replicon", "value": "1.6 µM"}
{"smiles": "Cc1ccccc1Cn1c(C(=O)NS(C)(=O)=O)c(-c2ccc[nH]c2=O)c2c3ncsc3ccc21", "method": "replicon", "value": "<0.5 µM"}
{"smiles": "CCCCCCCCCN1CCN(Cc2c(O)cc3c(c2O)-c2cc(ccc2O)[C@H]2NC(=O)[C@@H]4NC(=O)[C@H]5NC(=O)[C@@H](Cc6ccc(c(Cl)c6)Oc6cc4cc(c6O)Oc4ccc(cc4Cl)[C@@H](O)[C@H](NC2=O)C(=O)N[C@@H]3C(=O)O)NC(=O)[C@H](N)c2ccc(O)c(c2)Oc2cc(O)cc5c2)CC1", "strain": "Huh Mono", "method": "luciferase", "value": "4.8 µM"}
{"smiles": "NS(=O)(=O)c1cc(-c2ccc3nc(NCc4ccc(F)cc4)nc(NCC(F)(F)F)c3n2)ccc1F", "method": "replicon", "value": "<0.1 µM"}
{"smiles": "CCOC(=O)[C@@]12C[C@H]1/C=C\\CCCCC[C@H](N1CCCCC1)C(=O)N1C[C@H](Oc3cc(-c4ccccc4)nc4cc(OC)ccc34)C[C@H]1C(=O)N2", "strain": "1b", "method": "replicon", "value": "<100 µM"}
{"smiles": "COCCNc1nc(NCc2ccc(F)cc2)nc2ccc(-c3ccc(F)cc3)nc12", "method": "replicon", "value": "<0.1 µM"}
{"smiles": "CC(C)(c1ccc(F)cc1)c1noc(-c2cn(Cc3ccc(C(F)(F)F)cc3)c3cc(N4CCOCC4)c(F)cc3c2=O)n1", "strain": "1b", "method": "replicon", "value": ">10 µM"}
{"smiles": "CCOc1ccccc1-c1cc(-c2cccc(N(C)C(=O)C(Cl)Cl)c2)on1", "method": "replicon", "value": "≤10 µM"}
{"smiles": "CCOC(=O)[C@]12C[C@@H]1/C=C\\CCCCC[C@H](N1CCCCC1)C(=O)N1C[C@H](Oc3cc(-c4ccccc4)nc4cc(OC)ccc34)C[C@H]1C(=O)N2", "strain": "1b", "method": "replicon", "value": "<100 µM"}
{"smiles": "O=C(Nc1cccc(-c2cc(-c3c(Cl)cccc3Cl)no2)c1)C(Br)Br", "method": "replicon", "value": "≤10 µM"}
{"smiles": "CN1CCN(c2cc3c(cc2F)c(=O)c(-c2noc(C(C)(C)c4ccccc4)n2)cn3Cc2ccc(Cl)nc2)CC1", "strain": "1b", "method": "replicon", "value": ">10 µM"}
{"smiles": "CS(=O)(=O)CCNc1nc(NCc2ccc(F)cc2)nc2ccc(-c3ccc(C(N)=O)cc3)nc12", "method": "replicon", "value": "<0.1 µM"}
{"smiles": "CC(C)(O)C1Cc2cc3cc(-c4cc(O)cc(O)c4)oc3cc2O1", "method": "replicon", "value": "80.8 µM"}
{"smiles": "O=C(Nc1cccc(-c2cc(-c3c(Cl)cccc3-n3ccnc3)no2)c1)C(Cl)Cl", "method": "replicon", "value": "≤10 µM"}
{"smiles": "O=C(NS(=O)(=O)C1CC1)c1c(-c2ccc[nH]c2=O)c2c3occc3ccc2n1Cc1ccccc1F", "method": "replicon", "value": "<0.5 µM"}
{"smiles": "Cc1ccc(Cl)c(-c2cc(-c3cccc(NC(=O)C(Cl)Cl)c3)on2)c1F", "method": "replicon", "value": "≤10 µM"}
{"smiles": "CN1CCN(c2cc3c(cc2F)c(=O)c(-c2noc(CC(C)(C)C)n2)cn3Cc2ccc(Cl)cc2)CC1", "strain": "1b", "method": "replicon", "value": ">10 µM"}
{"smiles": "NC(=O)c1ccc(F)c(Cn2c(C(=O)NS(=O)(=O)C3CC3)c(-c3ccc[nH]c3=O)c3c4occc4c(F)cc32)c1", "method": "replicon", "value": "<0.5 µM"}
{"smiles": "C=CC1CC1(NC(=O)[C@@H]1C[C@@H](Oc2cc(-c3ccccc3)nc3cc(OC)ccc23)CN1C(=O)[C@H](C1CCCCC1)N1CCCCC1)C(=O)NS(=O)(=O)C1CC1", "strain": "1b", "method": "replicon", "value": "<100 µM"}
{"smiles": "O=C(Nc1cccc(-c2cc(-c3c(Cl)cccc3C3CCCC3)no2)c1)C(Cl)Cl", "method": "replicon", "value": "≤10 µM"}
{"smiles": "C=CC1CC1(NC(=O)[C@@H]1C[C@@H](Oc2cc(-c3ccccc3)nc3cc(OC)ccc23)CN1C(=O)[C@@H](N1CCCCC1)C(C)(C)C)C(=O)OCC", "strain": "1b", "method": "replicon", "value": "<100 µM"}
{"smiles": "CC(C)S(=O)(=O)NC(=O)c1c(-c2ccc[nH]c2=O)c2c3occc3c(F)cc2n1Cc1csc(C(N)=O)c1", "method": "replicon", "value": "<0.5 µM"}
{"smiles": "CCc1ccc(S(=O)(=O)N2CCN(c3cc(OC)cc(OC)c3)CC2C(=O)N(Cc2ccccc2Cl)Cc2ccccc2Cl)cc1", "strain": "1a", "method": "replicon", "value": ">50 µM"}
{"smiles": "C=CC1CC1(NC(=O)[C@@H]1C[C@@H](Oc2cc(-c3ccccc3)nc3cc(OC)ccc23)CN1C(=O)[C@H](C(C)C)N1CCCCC1)C(=O)OCC", "strain": "1b", "method": "replicon", "value": "<100 µM"}
{"smiles": "NC(=O)c1cnc(F)c(Cn2c(C(=O)O)c(-c3ccc[nH]c3=O)c3c4c(c(F)cc32)CCO4)c1", "method": "replicon", "value": "<0.5 µM"}
{"smiles": "CCCC(NC(=O)C1C2CCCC2CN1C(=O)[C@@H](NC(=O)OC(C)(C)C)C(C)(C)C)C(=O)C(=O)NC1CC1", "strain": "1b", "method": "replicon", "value": "<100 µM"}
{"smiles": "CS(=O)(=O)NC(=O)c1c(-c2ccc[nH]c2=O)c2c3c(c(F)cc2n1Cc1csc(C(N)=O)c1)CCO3", "method": "replicon", "value": "<0.5 µM"}
{"smiles": "CCCC(NC(=O)C1C2CCCC2CN1C(=O)[C@H](C(C)C)N1CCCCC1)C(=O)C(=O)NC1CC1", "strain": "1b", "method": "replicon", "value": "<100 µM"}
{"smiles": "O=C(O)c1ccc(Cl)c(-c2cc(-c3cccc(NC(=O)C(Cl)Cl)c3)on2)c1Cl", "method": "replicon", "value": ">10 µM"}
{"smiles": "CCCC(NC(=O)C1C2CCCC2CN1C(=O)C(c1ccccc1)N1CCCCC1)C(=O)C(=O)NC1CC1", "strain": "1b", "method": "replicon", "value": "<100 µM"}
{"smiles": "CN1CCN(c2cc3c(cc2F)c(=O)c(-c2noc(Cc4ccccn4)n2)cn3Cc2ccc(Cl)cc2)CC1", "strain": "1b", "method": "replicon", "value": ">10 µM"}

For reference, 3 entries again:

smiles	strain	method	value
CCOc1ccccc1-c1cc(-c2cccc(N(C)C(=O)C(Cl)Cl)c2)on1	-	replicon	≤10 µM
Fc1ccc(CNc2nc(NCC(F)(F)F)c3nc(-c4ccc(F)cc4)ccc3n2)cc1	-	replicon	<0.1 µM
C=CC1CC1(NC(=O)[C@@H]1C[C@@H](Oc2cc(-c3ccccc3)nc3cc(OC)ccc23)CN1C(=O)[C@H](C1CCCCC1)N1CCCCC1)C(=O)NS(=O)(=O)C1CC1	1b	replicon	<100 µM

An empty or dashed field is not shown. Conditions beyond the fields shown may differ between rows.